Experimental data: patent US7067714B1 (priority 1999, dated 2006)

Chains of the proteins cited; added tags and fusions are not shown.
UniProt O55017, whole entry, looked up: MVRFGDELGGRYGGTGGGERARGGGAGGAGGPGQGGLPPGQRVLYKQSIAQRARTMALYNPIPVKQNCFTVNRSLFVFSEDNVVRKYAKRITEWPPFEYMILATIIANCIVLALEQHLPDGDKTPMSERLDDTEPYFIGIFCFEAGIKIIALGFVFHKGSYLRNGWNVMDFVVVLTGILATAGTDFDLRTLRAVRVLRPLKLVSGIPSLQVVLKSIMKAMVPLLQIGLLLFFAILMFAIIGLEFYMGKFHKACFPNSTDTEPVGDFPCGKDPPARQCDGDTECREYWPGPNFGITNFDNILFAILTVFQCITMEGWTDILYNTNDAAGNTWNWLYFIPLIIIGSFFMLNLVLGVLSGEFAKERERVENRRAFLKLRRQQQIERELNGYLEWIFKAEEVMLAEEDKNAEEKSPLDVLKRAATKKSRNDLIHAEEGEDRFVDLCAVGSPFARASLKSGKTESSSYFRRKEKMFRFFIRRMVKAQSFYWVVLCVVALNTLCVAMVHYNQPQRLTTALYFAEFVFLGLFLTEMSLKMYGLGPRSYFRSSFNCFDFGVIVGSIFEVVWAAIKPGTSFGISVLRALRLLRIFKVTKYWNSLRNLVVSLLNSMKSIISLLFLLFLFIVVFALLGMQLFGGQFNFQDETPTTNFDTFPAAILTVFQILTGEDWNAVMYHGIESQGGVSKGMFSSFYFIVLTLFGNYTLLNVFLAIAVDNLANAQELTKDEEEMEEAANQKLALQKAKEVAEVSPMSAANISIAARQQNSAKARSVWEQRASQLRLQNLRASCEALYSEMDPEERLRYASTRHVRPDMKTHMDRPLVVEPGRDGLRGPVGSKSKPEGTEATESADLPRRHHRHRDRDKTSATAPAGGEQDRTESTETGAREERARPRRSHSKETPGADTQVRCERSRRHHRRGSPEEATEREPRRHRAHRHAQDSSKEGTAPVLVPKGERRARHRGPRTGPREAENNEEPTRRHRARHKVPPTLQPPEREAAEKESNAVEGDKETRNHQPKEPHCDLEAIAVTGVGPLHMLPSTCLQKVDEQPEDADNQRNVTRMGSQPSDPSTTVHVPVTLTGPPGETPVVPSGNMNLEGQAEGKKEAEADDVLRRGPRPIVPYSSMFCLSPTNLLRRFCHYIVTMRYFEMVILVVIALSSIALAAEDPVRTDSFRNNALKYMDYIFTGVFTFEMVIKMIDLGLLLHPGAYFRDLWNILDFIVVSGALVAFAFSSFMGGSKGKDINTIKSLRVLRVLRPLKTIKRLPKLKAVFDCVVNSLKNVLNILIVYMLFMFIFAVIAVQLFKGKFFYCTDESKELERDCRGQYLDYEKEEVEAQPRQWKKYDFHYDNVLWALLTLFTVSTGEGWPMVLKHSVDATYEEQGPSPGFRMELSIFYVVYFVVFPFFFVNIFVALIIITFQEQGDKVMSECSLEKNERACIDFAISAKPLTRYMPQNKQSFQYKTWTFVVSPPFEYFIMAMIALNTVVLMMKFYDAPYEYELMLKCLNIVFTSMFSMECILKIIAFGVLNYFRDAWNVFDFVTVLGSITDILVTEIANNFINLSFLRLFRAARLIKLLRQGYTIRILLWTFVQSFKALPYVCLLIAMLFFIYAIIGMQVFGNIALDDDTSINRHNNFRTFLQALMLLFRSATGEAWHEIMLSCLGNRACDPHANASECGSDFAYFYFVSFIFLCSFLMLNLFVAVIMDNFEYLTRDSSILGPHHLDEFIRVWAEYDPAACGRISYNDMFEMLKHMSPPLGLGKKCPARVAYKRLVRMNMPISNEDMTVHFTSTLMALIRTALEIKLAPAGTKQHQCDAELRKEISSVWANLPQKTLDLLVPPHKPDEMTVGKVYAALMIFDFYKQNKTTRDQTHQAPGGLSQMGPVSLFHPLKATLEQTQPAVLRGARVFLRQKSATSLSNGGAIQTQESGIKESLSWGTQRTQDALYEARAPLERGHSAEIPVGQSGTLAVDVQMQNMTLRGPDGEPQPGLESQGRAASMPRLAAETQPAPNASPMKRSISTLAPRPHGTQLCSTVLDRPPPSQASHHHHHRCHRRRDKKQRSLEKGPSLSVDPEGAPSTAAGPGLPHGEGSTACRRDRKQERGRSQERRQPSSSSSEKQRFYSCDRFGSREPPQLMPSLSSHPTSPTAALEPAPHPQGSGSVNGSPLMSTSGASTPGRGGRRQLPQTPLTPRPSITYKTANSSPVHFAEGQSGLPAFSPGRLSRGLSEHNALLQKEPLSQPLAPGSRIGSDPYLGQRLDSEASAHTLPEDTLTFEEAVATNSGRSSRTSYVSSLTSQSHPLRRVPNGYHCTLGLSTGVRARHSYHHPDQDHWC

Target: N-type Ca channel (Mus musculus, UniProt O55017)
Details: in vivo

ω-conotoxin GVIA
transient rise of blood pressure on BCO for 30 seconds: mostly disappeared
